Results of unrelated studies side by side (data: NIAID ChemDB).

Shared fields: host cell toxicity; cell line: CEM; endpoint: CC50

CCn is the concentration with n% toxicity to the cells.

smiles | read by | result
Cc1cn([C@H]2C[C@H](N=C(N)N)[C@@H](CO)O2)c(=O)[nH]c1=O | - | 3.5 µM
Cc1cccc(N2C(=O)CSC2c2c(C(F)(F)F)ccc(Cl)c2F)n1 | - | 79.1 µM
Fc1cccc(C2SCc3nc4ccccc4n32)c1 | - | 67.4 µM
COC(=O)N[C@H]1C[C@H](n2cc(C)c(=O)[nH]c2=O)O[C@@H]1CO | - | 17 µM
O=C(N[C@@H](Cc1ccc(O)cc1)C(=O)O)c1ccccc1SSc1ccccc1C(=O)N[C@@H](Cc1ccc(O)cc1)C(=O)O | - | >165 µM
CCCCCCCC(=O)Nc1nc(N)nc2c1ncn2[C@H]1CO[C@@H](COP(=O)(N[C@@H](C)C(=O)OCC)Oc2ccccc2)O1 | - | 16 µM
Nc1ccn([C@@H]2CC[C@H](CO)O2)c(=O)n1 | - | 70 µM
Cc1cn([C@H]2C=C[C@@H](COP(=O)(Nc3cc(C(=O)Nc4cc(C(=O)Nc5cc(C(=O)NCCC#N)n(C)c5)n(C)c4)n(C)c3)OC3CCCCC3)O2)c(=O)[nH]c1=O | MTT | 192 µM
COC(=O)C[C@H](CCCCN)NC(=O)c1ccccc1SSc1ccccc1C(=O)N[C@@H](CCCCN)CC(=O)OC | - | >100 µM
Cc1cn([C@H]2C[C@H](NC#N)[C@@H](CO)O2)c(=O)[nH]c1=O | - | 75 µM
Fc1ccccc1C1SCc2nc3ccccc3n21 | - | >126 µM
CC(C)CN(C[C@@H](O)[C@H](Cc1ccccc1)NC(=O)CN1C(=O)c2ccccc2C1=O)S(=O)(=O)c1ccc(Br)cc1 | MTT | >100 µM
COC(=O)[C@H](C)NP(=O)(OC[C@@H]1C=C[C@H](n2cnc3c(=O)[nH]c(N)nc32)C1)Oc1ccccc1 | - | 123 µM
O=S(=O)(c1cccc2cnccc12)N1CCNCC1 | - | 10.2 µg/mL
CCCCCCCC/C=C\CCCCCCCC(=O)Nc1nc(N)nc2c1ncn2[C@H]1CO[C@@H](COP(=O)(N[C@@H](C)C(=O)OCC)Oc2ccccc2)O1 | - | 10 µM
Cn1cc(C(=O)O)c(=O)c2cc(F)c(N3CC=C(c4ccccc4)CC3)c(C(F)(F)F)c21 | MTT | 1.8 µM
CC(=O)ONc1ccc(S(=O)(=O)N(CC(C)C)C[C@@H](O)[C@H](Cc2ccccc2)NC(=O)Cc2c[nH]c3ccccc23)cc1 | MTT | >100 µM
NC[C@H]1C[C@@H](n2cnc3c(N)ncnc32)[C@H](O)[C@@H]1O | - | 117 µg/mL
Cc1cn([C@H]2C=C[C@@H](COP(=O)(Nc3cc(C(=O)Nc4cc(C(=O)Nc5cc(C(=O)NCCC#N)n(C)c5)n(C)c4)n(C)c3)OC(C)C)O2)c(=O)[nH]c1=O | MTT | 188 µM
CC(C)CN(C[C@@H](O)[C@H](Cc1ccccc1)NC(=O)CCCN1C(=O)c2ccccc2C1=O)S(=O)(=O)c1ccc(Br)cc1 | MTT | >100 µM
Nc1ccc(C[C@H](NC(=O)c2ccccc2SSc2ccccc2C(=O)N[C@@H](Cc2ccc(N)cc2)C(=O)O)C(=O)O)cc1 | - | 15 µM
Cc1ccc(N2C(=O)CCC2(C#N)c2ccc(OC(C)C)cc2)cc1 | absorbance | 17 µM
Cc1cn([C@H]2C[C@H](N=[N+]=[N-])[C@@H](COP(=O)(OCCC#N)OC3CCC4(C)C(=CCC5C4CCC4(C)C(C(C)CCCC(C)C)CCC54)C3)O2)c(=O)[nH]c1=O | - | >200 µM
CCOC(=O)[C@H](C)NP(=O)(OC[C@@H]1OC[C@H](n2cnc3c(NC(C)=O)nc(N)nc32)O1)Oc1ccccc1 | - | >100 µM
CCCCCCCCCCCCCCCCOCCCOP(=O)(O)COCCn1cnc2c(=O)[nH]c(N)nc21 | neutral red | 0.43 µM
Clc1cccc(Cl)c1C1SCc2nc3ncccc3n21 | - | 160 µM
Cc1cc(C)cc(N2C(=O)CCC2(C#N)c2c(Cl)cccc2Cl)c1 | absorbance | 20.3 µM
COc1cccc(F)c1C1SCC(=O)N1c1nccc(C)n1 | - | >313 µM
c1ccc(C2SCc3nc4ncccc4n32)cc1 | - | 324 µM
Cc1ccc(N2C(=O)CCC2(CN)c2ccccc2)cc1 | absorbance | 53.6 µM
CCC(C)C(NC(=O)c1ccccc1SSc1ccccc1C(=O)NC(C(=O)O)C(C)CC)C(=O)O | - | >120 µM
CCCCCCCCCCCCCC(=O)OCC/C(SS/C(CCOC(=O)CCCCCCCCCCCCC)=C(\C)N(C=O)Cc1cnc(C)nc1N)=C(/C)N(C=O)Cc1cnc(C)nc1N | - | >100 µM
CCCCCC(=O)Nc1nc(N)nc2c1ncn2[C@H]1CO[C@@H](COP(=O)(N[C@@H](C)C(=O)OCC)Oc2ccccc2)O1 | - | 89 µM
CC(C)(C)OC(=O)NCCCC[C@H](NC(=O)c1ccccc1SSc1ccccc1C(=O)N[C@@H](CCCCNC(=O)OC(C)(C)C)C(=O)OC(C)(C)C)C(=O)OC(C)(C)C | - | 23 µM
Cc1ccnc(N2C(=O)CSC2c2c(F)ccc(C)c2Cl)n1 | - | 158.5 µM
CC(=O)ONc1ccc(S(=O)(=O)N(CC(C)C)C[C@@H](O)[C@H](Cc2ccccc2)NC(=O)[C@H](C(C)C)N2C(=O)c3ccccc3C2=O)cc1 | MTT | >100 µM
CC(C)(C)C[C@H](NC(=O)c1ccccc1SSc1ccccc1C(=O)N[C@@H](CC(C)(C)C)C(=O)O)C(=O)O | - | 92 µM
Cc1cn([C@H]2C=C[C@@H](COP(=O)(Nc3cc(C(=O)Nc4cc(C(=O)Nc5cc(C(=O)Nc6cc(C(=O)NCCC(=N)N)n(C)c6)n(C)c5)n(C)c4)n(C)c3)OC(C)C)O2)c(=O)[nH]c1=O | MTT | >200 µM
Cc1cn([C@H]2C[C@H](NC(N)=O)[C@@H](CO)O2)c(=O)[nH]c1=O | - | 7 µM
Brc1ccccc1C1SCc2nc3ncccc3n21 | - | >78.3 µM
Nc1ccn([C@H]2CC[C@@H](CO)O2)c(=O)n1 | - | 28 µM
Nc1nc(NC2CC2)c2ncn([C@H]3C=C[C@@H](CO)C3)c2n1 | - | 97 µM
Cc1cc(C)nc(N2C(=O)CSC2c2c(C(F)(F)F)ccc(Cl)c2F)c1 | - | 130 µM
Cc1cn([C@H]2C[C@H](N=[N+]=[N-])[C@@H](COP(=O)(Nc3cc(C(=O)Nc4cc(C(=O)NCCC(=N)N)n(C)c4)n(C)c3)OC3CCCCC3)O2)c(=O)[nH]c1=O | MTT | >200 µM
CC1(C)SCc2nc3ncccc3n21 | - | 614 µM
CCCCCCCCCCCCCC(=O)Nc1nc(N)nc2c1ncn2[C@H]1CO[C@@H](COP(=O)(N[C@@H](C)C(=O)OCC)Oc2ccccc2)O1 | - | 7.5 µM
O=[N+]([O-])c1ccccc1C1SCc2nc3ccccc3n21 | - | 37.2 µM
CC(=O)ONc1ccc(S(=O)(=O)N(Cc2ccccc2)C[C@@H](O)[C@H](Cc2ccccc2)NC(=O)Cc2c[nH]c3ccccc23)cc1 | MTT | >100 µM

7 of the rows above, restated:

| smiles | read by | result |
|---|---|---|
| Cc1cn([C@H]2C=C[C@@H](COP(=O)(Nc3cc(C(=O)Nc4cc(C(=O)Nc5cc(C(=O)Nc6cc(C(=O)NCCC(=N)N)n(C)c6)n(C)c5)n(C)c4)n(C)c3)OC(C)C)O2)c(=O)[nH]c1=O | MTT | >200 µM |
| Cc1ccnc(N2C(=O)CSC2c2c(F)ccc(C)c2Cl)n1 | - | 158.5 µM |
| Cc1cccc(N2C(=O)CSC2c2c(C(F)(F)F)ccc(Cl)c2F)n1 | - | 79.1 µM |
| CCOC(=O)[C@H](C)NP(=O)(OC[C@@H]1OC[C@H](n2cnc3c(NC(C)=O)nc(N)nc32)O1)Oc1ccccc1 | - | >100 µM |
| c1ccc(C2SCc3nc4ncccc4n32)cc1 | - | 324 µM |
| O=S(=O)(c1cccc2cnccc12)N1CCNCC1 | - | 10.2 µg/mL |
| O=[N+]([O-])c1ccccc1C1SCc2nc3ccccc3n21 | - | 37.2 µM |

An empty or dashed field is not shown. Lines come from different laboratories, so protocols vary.